Test system: HT-29 cells
Test: WST-1 cell growth/viability assay, HT-29
Format: cell-based, human
Experimental: Indicated concentrations of drugs were added to wells one day after seeding. […] Cell proliferation was quantitated by measuring 450 nm absorbance and 600 nm as a background. All assays were performed in triplicate. […] The minimal combination index […] for each cell line was obtained from the isobologram parameters.

O=c1[nH]c(=O)n([C@H]2C[C@H](O)[C@@H](CO)O2)cc1F [5-FUdR, 5-fluoro-2′-deoxyuridine]
concentration required to synergistically inhibit cell proliferation and viability with hmUdR: 5 nM

— US10086010B2 (STC.UNM, priority 2014, dated 2018)
